## Single amino acid changes in Zika NS2B-NS3 and viral growth

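Pools of virus carrying all single amino acid changes were selected for growth in Huh-7.5 cells. The effect is the change in frequency of a mutant, normalised to wild type, as a mean of three replicate libraries (two for positions 207-308).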

The scanned region of Zika virus MR766 is shown below (positions 1-308): NS2B is 2-131, NS3 begins at position 132.
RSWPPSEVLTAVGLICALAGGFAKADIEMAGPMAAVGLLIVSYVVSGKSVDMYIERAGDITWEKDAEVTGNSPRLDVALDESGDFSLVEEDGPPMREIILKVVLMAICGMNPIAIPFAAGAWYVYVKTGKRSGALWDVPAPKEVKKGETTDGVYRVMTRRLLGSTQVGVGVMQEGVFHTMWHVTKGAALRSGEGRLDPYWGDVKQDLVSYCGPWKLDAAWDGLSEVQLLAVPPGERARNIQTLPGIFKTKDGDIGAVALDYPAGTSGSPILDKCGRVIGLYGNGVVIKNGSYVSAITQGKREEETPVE

Values are log2 effects on growth: 0 is wild type, lower means poorer growth. A change reads original residue, position, new residue. Position 1 still belongs to NS2A. In the paper, -1 or higher counts as tolerated. The region was split into three libraries (1-103, 104-206, 207-308). Stop codons (*) centre on -7 and mark the level of dead virus. Values above 0 are not proof of better growth: six high scorers were tested one by one, five grew less well than wild type and one about as well.

{"mutation": "I278*", "log2 growth effect": -6.88}
{"mutation": "I278A", "log2 growth effect": -4.90}
{"mutation": "I278C", "log2 growth effect": -3.09}
{"mutation": "I278D", "log2 growth effect": -4.49}
{"mutation": "I278E", "log2 growth effect": -4.03}
{"mutation": "I278F", "log2 growth effect": -4.98}
{"mutation": "I278G", "log2 growth effect": -5.48}
{"mutation": "I278H", "log2 growth effect": -4.80}
{"mutation": "I278K", "log2 growth effect": -5.06}
{"mutation": "I278L", "log2 growth effect": -0.55}
{"mutation": "I278M", "log2 growth effect": -5.19}
{"mutation": "I278N", "log2 growth effect": -5.20}
{"mutation": "I278P", "log2 growth effect": -5.50}
{"mutation": "I278Q", "log2 growth effect": -4.89}
{"mutation": "I278R", "log2 growth effect": -6.46}
{"mutation": "I278S", "log2 growth effect": -5.89}
{"mutation": "I278T", "log2 growth effect": -5.90}
{"mutation": "I278V", "log2 growth effect": -4.63}
{"mutation": "I278W", "log2 growth effect": -4.83}
{"mutation": "I278Y", "log2 growth effect": -4.61}
{"mutation": "G279*", "log2 growth effect": -7.38}
{"mutation": "G279A", "log2 growth effect": -5.74}
{"mutation": "G279C", "log2 growth effect": -4.77}
{"mutation": "G279D", "log2 growth effect": -4.56}
{"mutation": "G279E", "log2 growth effect": -4.20}
{"mutation": "G279F", "log2 growth effect": -4.97}
{"mutation": "G279H", "log2 growth effect": -4.52}
{"mutation": "G279I", "log2 growth effect": -4.87}
{"mutation": "G279K", "log2 growth effect": -4.90}
{"mutation": "G279L", "log2 growth effect": -6.21}
{"mutation": "G279M", "log2 growth effect": -4.30}
{"mutation": "G279N", "log2 growth effect": -4.60}
{"mutation": "G279P", "log2 growth effect": -5.56}
{"mutation": "G279Q", "log2 growth effect": -4.84}
{"mutation": "G279R", "log2 growth effect": -6.40}
{"mutation": "G279S", "log2 growth effect": -6.01}
{"mutation": "G279T", "log2 growth effect": -5.62}
{"mutation": "G279V", "log2 growth effect": -6.10}
{"mutation": "G279W", "log2 growth effect": -4.79}
{"mutation": "G279Y", "log2 growth effect": -4.12}
{"mutation": "L280*", "log2 growth effect": -7.09}
{"mutation": "L280A", "log2 growth effect": -6.10}
{"mutation": "L280C", "log2 growth effect": -5.16}
{"mutation": "L280D", "log2 growth effect": -4.73}
{"mutation": "L280E", "log2 growth effect": -4.95}
{"mutation": "L280F", "log2 growth effect": -5.77}
{"mutation": "L280G", "log2 growth effect": -5.94}
{"mutation": "L280H", "log2 growth effect": -3.98}
{"mutation": "L280I", "log2 growth effect": -5.31}
{"mutation": "L280K", "log2 growth effect": -5.43}
{"mutation": "L280M", "log2 growth effect": -5.12}
{"mutation": "L280N", "log2 growth effect": -4.75}
{"mutation": "L280P", "log2 growth effect": -6.83}
{"mutation": "L280Q", "log2 growth effect": -5.55}
{"mutation": "L280R", "log2 growth effect": -6.79}
{"mutation": "L280S", "log2 growth effect": -6.94}
{"mutation": "L280T", "log2 growth effect": -6.28}
{"mutation": "L280V", "log2 growth effect": -5.26}
{"mutation": "L280W", "log2 growth effect": -5.24}
{"mutation": "L280Y", "log2 growth effect": -5.37}

The measurements come from Ni et al. 2025 (doi:10.1038/s41467-025-63602-z).